Laboratory results taken from US7060486B2 (priority 1998, dated 2006).

Assay: Batch culture corrosion loss of SAE 1018 steel in modified Baar's medium
Settings: ampicillin 100 μg/mL added before D. vulgaris

## CC1(C)S[C@@H]2[C@H](NC(=O)[C@H](N)c3ccccc3)C(=O)N2[C@H]1C(=O)O [ampicillin]
1 week
  mass loss less than when ampicillin was added after SRB: 40%
3 weeks
  mass loss less than when ampicillin was added after SRB: 14%
